According to patent US20120088662A1, “FUNGICIDAL MIXTURES” (BASF SE, priority 2009, published 2012):

Tested on: Septoria tritici
Assay: Use Example M7: activity against Septoria leaf spot pathogen in the microtiter test (Septtr), relative growth
Settings: 31 ppm, measured at 405 nm on day 7 after inoculation, active compound-free control 100%

For `CCSc1ncnn1C[C@]1(c2ccc(F)cc2)O[C@H]1c1ccccc1Cl` (relative stereo) [I-18, trans-1-[3-(2-chlorophenyl)-2-(4-fluorophenyl)oxiranylmethyl]-5-ethylsulfanyl-1H-[1,2,4]triazole], the “growth (relative growth in % of the pathogens)” value was 11%.
